# Residue numbers refer to the chain shown, from its start.
# B1: GpTx-1(1-31) (peptide)
# peptide: DCLGFMRKCIPDNDKCCRPNLVCSRTHKWCK
# modifications: not checked
# B2: GpTx-1(1-32) (peptide)
# peptide: DCLGFMRKCIPDNDKCCRPNLVCSRTHKWCKY
# modifications: not checked
# B3: GpTx-1(1-33) (peptide)
# peptide: DCLGFMRKCIPDNDKCCRPNLVCSRTHKWCKYV
# modifications: not checked
# B4: [Lys33]GpTx-1(1-34) (peptide)
# peptide: DCLGFMRKCIPDNDKCCRPNLVCSRTHKWCKYKF
# modifications: not checked
# B5: [Leu34]GpTx-1(1-34) (peptide)
# peptide: B4 peptide with K33V, F34L
# modifications: not checked
# B6: [Arg1]GpTx-1(1-34) (peptide)
# peptide: B4 peptide with D1R, K33V
# modifications: not checked
# B7: [Arg34]GpTx-1(1-34) (peptide)
# peptide: B4 peptide with K33V, F34R
# modifications: not checked
# B8: [Ile34]GpTx-1(1-34) (peptide)
# peptide: B4 peptide with K33V, F34I
# modifications: not checked
# B9: [Lys34]GpTx-1(1-34) (peptide)
# peptide: B4 peptide with K33V, F34K
# modifications: not checked
# B10: [Asp33]GpTx-1(1-34) (peptide)
# peptide: B4 peptide with K33D
# modifications: not checked
# B11: [Leu33]GpTx-1(1-34) (peptide)
# peptide: B4 peptide with K33L
# modifications: not checked
# B12: [Ala34]GpTx-1(1-34) (peptide)
# peptide: B4 peptide with K33V, F34A
# modifications: not checked
# B13: [Phe33]GpTx-1(1-34) (peptide)
# peptide: B4 peptide with K33F
# modifications: not checked
# B14: [Ser33]GpTx-1(1-34) (peptide)
# peptide: B4 peptide with K33S
# modifications: not checked
# B15: [Gly33]GpTx-1(1-34) (peptide)
# peptide: B4 peptide with K33G
# modifications: not checked
# B16: [Tyr1]GpTx-1(1-34) (peptide)
# peptide: B4 peptide with D1Y, K33V
# modifications: not checked
# B17: [Trp1]GpTx-1(1-34) (peptide)
# peptide: B4 peptide with D1W, K33V
# modifications: not checked
# B18: [Arg33]GpTx-1(1-34) (peptide)
# peptide: B4 peptide with K33R
# modifications: not checked
# B19: [Gln33]GpTx-1(1-34) (peptide)
# peptide: B4 peptide with K33Q
# modifications: not checked
# B20: [Thr33]GpTx-1(1-34) (peptide)
# peptide: B4 peptide with K33T
# modifications: not checked
# B21: [His33]GpTx-1(1-34) (peptide)
# peptide: B4 peptide with K33H
# modifications: not checked
# B22: [Trp34]GpTx-1(1-34) (peptide)
# peptide: B4 peptide with K33V, F34W
# modifications: not checked
# B23: [Tyr33]GpTx-1(1-34) (peptide)
# peptide: B4 peptide with K33Y
# modifications: not checked
# B24: [Met33]GpTx-1(1-34) (peptide)
# peptide: B4 peptide with K33M
# modifications: not checked
# B25: [Ala2,17]GpTx-1(1-34) (peptide)
# peptide: B4 peptide with C2A, C17A, K33V
# modifications: not checked
# B26: [Asn33]GpTx-1(1-34) (peptide)
# peptide: B4 peptide with K33N
# modifications: not checked
# B27: [Ile1]GpTx-1(1-34) (peptide)
# peptide: B4 peptide with D1I, K33V
# modifications: not checked
# B28: [Glu18;desAsn20]GpTx-1(1-34) (peptide)
# peptide: DCLGFMRKCIPDNDKCCEGLVCSRTHKWCKYVF
# modifications: not checked
# B29: GpTx-1(1-34)-Ala (peptide)
# peptide: DCLGFMRKCIPDNDKCCRPNLVCSRTHKWCKYVFA
# modifications: not checked
# B30: GpTx-1(1-34)-Glu (peptide)
# peptide: B29 peptide with A35E
# modifications: not checked
# B31: GpTx-1(1-34)-Trp (peptide)
# peptide: B29 peptide with A35W
# modifications: not checked
# B32: GpTx-1(1-34)-Arg (peptide)
# peptide: B29 peptide with A35R
# modifications: not checked
# B33: GpTx-1(1-34)-Trp-FreeAcid (peptide)
# peptide: B29 peptide with A35W
# modifications: not checked
# Target: human voltage-gated sodium channel Nav1.3 (human), Q9NY46
# Experiment: cell-based or functional assay
Binder,"IWQ Use Nav1.3 (µM) (IC50, IonWorks Quattro population patch clamp)","IC50, IWQ Use Nav1.3 [nM]",IWQ Use Nav1.3 [µM],"IWQ Use Nav1.3 (µM); IC50 of peak inward current, IonWorks Quattro [µM]",Nav1.3 Use IC50 (PatchXpress whole cell patch clamp) [nM]
B1,9.09,,,,
B2,0.88,,,,
B3,1.3,,,,
B4,,70,,,
B5,,,0.13,,
B6,,,0.1,,
B7,,,4.69,,
B8,,,0.28,,
B9,,,7.74,,
B10,,170,,,
B11,,,,0.07,
B12,,,4.76,,
B13,,40,,,
B14,,60,,,
B15,,,,0.04,
B16,,,0.13,,
B17,,,0.1,,

Binder,"IWQ Use Nav1.3 (µM) (IC50, IonWorks Quattro population patch clamp)","IC50, IWQ Use Nav1.3 [nM]",IWQ Use Nav1.3 [µM],"IWQ Use Nav1.3 (µM); IC50 of peak inward current, IonWorks Quattro [µM]",Nav1.3 Use IC50 (PatchXpress whole cell patch clamp) [nM]
B18,,50,,,
B19,,110,,,10
B20,,40,,,
B21,,10,,,
B22,,,0.18,,
B23,,,,0.03,
B24,,80,,,
B25,,,,0.79,
B26,,70,,,
B27,,,0.07,,
B28,,,,0.51,
B29,0.26,,,,
B30,2.47,,,,
B31,0.07,,,,15
B32,0.1,,,,
B33,0.11,,,,

# Target: human voltage-gated sodium channel Nav1.5 (human), Q14524
# Experiment: cell-based or functional assay
Binder,"IWQ Use Nav1.5 (µM) (IC50, IonWorks Quattro population patch clamp)","IC50, IWQ Use Nav1.5 [nM]",IWQ Use Nav1.5 [µM],"IWQ Use Nav1.5 (µM); IC50 of peak inward current, IonWorks Quattro [µM]",Nav1.5 Use IC50 (PatchXpress whole cell patch clamp) [nM]
B1,11.9,,,,
B2,8.64,,,,
B3,10.8,,,,
B4,,9560,,,
B5,,,8.46,,
B6,,,8.78,,
B7,,,8.99,,
B8,,,10.8,,
B9,,,18.1,,
B10,,8790,,,
B11,,,,> 5,
B12,,,9.33,,
B13,,8660,,,
B14,,6280,,,
B15,,,,> 5,
B16,,,10.6,,
B17,,,8.79,,

Binder,"IWQ Use Nav1.5 (µM) (IC50, IonWorks Quattro population patch clamp)","IC50, IWQ Use Nav1.5 [nM]",IWQ Use Nav1.5 [µM],"IWQ Use Nav1.5 (µM); IC50 of peak inward current, IonWorks Quattro [µM]",Nav1.5 Use IC50 (PatchXpress whole cell patch clamp) [nM]
B18,,9550,,,
B19,,10600,,,8250
B20,,3780,,,
B21,,8160,,,
B22,,,10,,
B23,,,,> 5,
B24,,15100,,,
B25,,,,18.9,
B26,,7940,,,
B27,,,8.15,,
B28,,,,11.5,
B29,14.2,,,,
B30,19.6,,,,
B31,7.87,,,,2660
B32,9.73,,,,
B33,8.28,,,,

# Target: human voltage-gated sodium channel Nav1.7 (human), Q15858
# Experiment: cell-based or functional assay
Binder,"IWQ Use Nav1.7 (µM) (IC50, IonWorks Quattro population patch clamp)","IC50, IWQ Use Nav1.7 [nM]",IWQ Use Nav1.7 [µM],"IWQ Use Nav1.7 (µM); IC50 of peak inward current, IonWorks Quattro [µM]",Nav1.7 Use IC50 (PatchXpress whole cell patch clamp) [nM]
B1,18.3,,,,
B2,1.5,,,,
B3,2.35,,,,
B4,,70,,,
B5,,,0.24,,
B6,,,0.11,,
B7,,,3.58,,
B8,,,0.28,,
B9,,,5.68,,
B10,,770,,,
B11,,,,0.13,
B12,,,7.19,,
B13,,60,,,
B14,,40,,,
B15,,,,0.29,
B16,,,0.16,,
B17,,,0.05,,

Binder,"IWQ Use Nav1.7 (µM) (IC50, IonWorks Quattro population patch clamp)","IC50, IWQ Use Nav1.7 [nM]",IWQ Use Nav1.7 [µM],"IWQ Use Nav1.7 (µM); IC50 of peak inward current, IonWorks Quattro [µM]",Nav1.7 Use IC50 (PatchXpress whole cell patch clamp) [nM]
B18,,80,,,
B19,,120,,,6
B20,,20,,,
B21,,20,,,
B22,,,0.26,,
B23,,,,0.07,
B24,,70,,,
B25,,,,2.45,
B26,,360,,,
B27,,,0.1,,
B28,,,,0.89,
B29,0.41,,,,
B30,4.47,,,,
B31,0.05,,,,9
B32,0.3,,,,
B33,0.48,,,,

# From patent US20160304570A1, “Potent and selective inhibitors of nav1.3 and nav1.7” (published 2016)
